From publication PMC9611977 (Toxins, 2022)

Legend:
[1] = system: human α7 nAChR; assay: radioligand competition assay with [125I]-αBgt, GH4C1 cells transfected with human α7 nAChR; conditions: purified toxin at 40 μM; average of three measurements
[2] = system: muscle-type T. californica nAChR (α1β1γδ); assay: radioligand competition assay with [125I]-αBgt, T. californica electric organ membranes; conditions: purified toxin at 20 μM; average of three measurements

## CC[C@H](C)[C@@H]1NC(=O)[C@H](CCSC)NC(=O)[C@H](Cc2ccccc2)NC(=O)[C@H](Cc2c[nH]c3ccccc23)NC(=O)[C@H](Cc2ccc(O)cc2)NC(=O)[C@H](C(C)C)NC(=O)CNC(=O)[C@H]([C@@H](C)O)NC(=O)[C@H](Cc2ccc(O)cc2)NC(=O)CNC(=O)[C@H](CC(C)C)NC(=O)[C@@H]2CSSC[C@@H]3NC(=O)[C@H](CO)NC(=O)[C@H](CC(C)C)NC(=O)[C@H](CC(N)=O)NC(=O)[C@H](Cc4ccc(O)cc4)NC(=O)CNC(=O)[C@H](Cc4c[nH]cn4)NC(=O)CNC(=O)[C@H](CC(N)=O)NC(=O)[C@@H]4CCCN4C(=O)[C@H](CSSC[C@@H](C(=O)N[C@H](C(=O)N[C@@H](CCCCN)C(=O)N[C@@H](CCCCN)C(=O)O)C(C)C)NC(=O)[C@H](CSSC[C@H](NC(=O)[C@@H]4CCCN4C(=O)[C@@H](NC(=O)CN)[C@@H](C)O)C(=O)N[C@@H](CCCCN)C(=O)N2)NC(=O)[C@H](C(C)C)NC(=O)CNC(=O)[C@H](CC(C)C)NC(=O)[C@H](Cc2ccccc2)NC(=O)[C@H](Cc2ccc(O)cc2)NC(=O)[C@@H]2CCCN2C3=O)NC(=O)[C@H](CCCNC(=N)N)NC(=O)[C@H]([C@@H](C)O)NC1=O [Hmg 1b-5]
[1]
  inhibition of [125I]-αBgt binding to human α7 nAChR: 38–40%
[2]
  inhibition of [125I]-αBgt binding to muscle-type T. californica nAChR: 50–55%
